Assays:
[1] = molecular target: Neuronal acetylcholine receptor subunit alpha-3/beta-2 (Rattus norvegicus, UniProt P12390+P04757)
[2] = molecular target: Neuronal acetylcholine receptor subunit alpha-3/beta-4 (Rattus norvegicus, UniProt P04757+P12392)
[3] = molecular target: Neuronal acetylcholine receptor subunit alpha-7 (Rattus norvegicus, UniProt Q05941)
[4] = molecular target: Neuronal acetylcholine receptor subunit alpha-4/beta-2 (Rattus norvegicus, UniProt P09483+P12390)

By UniProt entry, the sequences of proteins in these tests, tags left out. Residues count along the entry.
UniProt P12390, 25-500 limits assumed: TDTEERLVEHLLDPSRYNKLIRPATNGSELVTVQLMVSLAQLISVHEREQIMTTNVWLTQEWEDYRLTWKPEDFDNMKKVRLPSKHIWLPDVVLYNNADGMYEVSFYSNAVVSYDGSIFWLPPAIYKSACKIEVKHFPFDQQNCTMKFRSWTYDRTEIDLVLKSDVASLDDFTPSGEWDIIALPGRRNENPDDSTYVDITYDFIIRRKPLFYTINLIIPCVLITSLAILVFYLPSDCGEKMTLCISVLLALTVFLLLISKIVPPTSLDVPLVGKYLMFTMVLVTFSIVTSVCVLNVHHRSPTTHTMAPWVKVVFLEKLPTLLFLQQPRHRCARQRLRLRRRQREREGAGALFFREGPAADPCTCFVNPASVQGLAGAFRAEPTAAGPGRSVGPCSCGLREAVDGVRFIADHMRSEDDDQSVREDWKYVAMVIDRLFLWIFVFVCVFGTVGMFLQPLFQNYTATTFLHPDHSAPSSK
UniProt P04757, 26-499 limits assumed: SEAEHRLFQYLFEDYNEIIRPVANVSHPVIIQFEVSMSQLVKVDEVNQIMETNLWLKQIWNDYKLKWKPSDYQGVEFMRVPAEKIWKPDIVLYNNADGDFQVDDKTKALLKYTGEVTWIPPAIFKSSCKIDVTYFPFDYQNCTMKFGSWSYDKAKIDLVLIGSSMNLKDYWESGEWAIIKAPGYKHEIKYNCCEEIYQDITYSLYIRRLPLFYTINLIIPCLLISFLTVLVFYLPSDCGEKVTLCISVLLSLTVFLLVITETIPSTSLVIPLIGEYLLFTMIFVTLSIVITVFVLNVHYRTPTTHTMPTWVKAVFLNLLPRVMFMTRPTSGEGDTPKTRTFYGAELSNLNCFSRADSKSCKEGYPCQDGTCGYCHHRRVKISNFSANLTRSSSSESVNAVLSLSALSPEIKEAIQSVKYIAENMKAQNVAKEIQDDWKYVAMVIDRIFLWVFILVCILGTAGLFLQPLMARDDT
UniProt P12392, 21-495 limits assumed: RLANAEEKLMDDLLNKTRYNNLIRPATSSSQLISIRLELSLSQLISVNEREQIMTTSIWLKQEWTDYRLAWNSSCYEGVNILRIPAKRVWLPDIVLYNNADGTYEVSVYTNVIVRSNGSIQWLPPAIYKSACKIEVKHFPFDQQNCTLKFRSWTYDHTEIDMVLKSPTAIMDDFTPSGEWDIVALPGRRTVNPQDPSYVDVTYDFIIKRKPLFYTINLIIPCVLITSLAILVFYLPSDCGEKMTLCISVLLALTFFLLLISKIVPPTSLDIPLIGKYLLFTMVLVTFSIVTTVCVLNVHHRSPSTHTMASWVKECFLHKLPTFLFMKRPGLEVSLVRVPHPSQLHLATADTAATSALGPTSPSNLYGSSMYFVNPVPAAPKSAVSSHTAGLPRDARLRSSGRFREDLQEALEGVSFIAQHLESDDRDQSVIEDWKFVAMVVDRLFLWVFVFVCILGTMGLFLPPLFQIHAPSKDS
UniProt Q05941, 23-502 limits assumed: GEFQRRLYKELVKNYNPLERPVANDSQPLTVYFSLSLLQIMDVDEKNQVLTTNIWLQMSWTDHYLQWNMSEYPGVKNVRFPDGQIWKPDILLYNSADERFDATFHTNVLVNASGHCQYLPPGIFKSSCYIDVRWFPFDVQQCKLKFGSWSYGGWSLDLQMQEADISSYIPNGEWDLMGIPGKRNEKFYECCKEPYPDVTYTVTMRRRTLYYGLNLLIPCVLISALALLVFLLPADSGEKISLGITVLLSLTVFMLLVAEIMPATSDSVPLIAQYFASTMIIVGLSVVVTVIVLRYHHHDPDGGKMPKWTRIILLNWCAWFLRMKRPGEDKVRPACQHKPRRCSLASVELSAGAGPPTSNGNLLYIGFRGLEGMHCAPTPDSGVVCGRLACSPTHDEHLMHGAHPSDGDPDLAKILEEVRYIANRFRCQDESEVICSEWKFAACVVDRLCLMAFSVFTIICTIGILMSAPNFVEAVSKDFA
UniProt P09483, 31-630 limits assumed: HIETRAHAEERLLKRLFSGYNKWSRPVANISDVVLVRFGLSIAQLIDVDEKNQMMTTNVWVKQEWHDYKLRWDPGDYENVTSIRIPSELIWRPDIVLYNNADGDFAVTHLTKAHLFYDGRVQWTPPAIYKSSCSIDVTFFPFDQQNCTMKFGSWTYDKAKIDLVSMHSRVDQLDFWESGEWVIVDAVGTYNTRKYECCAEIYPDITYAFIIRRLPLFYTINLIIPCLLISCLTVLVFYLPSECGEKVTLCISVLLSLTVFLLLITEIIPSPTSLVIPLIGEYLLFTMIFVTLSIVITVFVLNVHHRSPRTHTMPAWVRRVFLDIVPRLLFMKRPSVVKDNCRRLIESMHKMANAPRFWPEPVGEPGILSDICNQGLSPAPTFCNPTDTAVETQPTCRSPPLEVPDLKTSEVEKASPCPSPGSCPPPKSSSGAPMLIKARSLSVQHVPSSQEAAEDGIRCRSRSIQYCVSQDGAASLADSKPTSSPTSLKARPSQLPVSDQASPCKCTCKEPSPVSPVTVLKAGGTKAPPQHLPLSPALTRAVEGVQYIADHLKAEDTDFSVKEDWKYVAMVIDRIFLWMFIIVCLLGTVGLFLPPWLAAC

SMILES | IC50 [1] [nM] | IC50 [2] [nM] | IC50 [3] [nM] | IC50 [4] [nM]
CC[C@H](C)[C@@H]1NC(=O)[C@H](Cc2cnc[nH]2)NC(=O)[C@@H]2CSSC[C@H](NC(=O)CN)C(=O)N[C@@H](CSSC[C@@H](C(N)=O)NC(=O)[C@H](CC(C)C)NC(=O)[C@H](CCC(=O)O)NC(=O)[C@@H]3CCCN3C(=O)[C@H](Cc3cnc[nH]3)NC(=O)[C@H](CCC(=O)O)NC1=O)C(=O)N[C@@H](CO)C(=O)N[C@@H](Cc1cnc[nH]1)C(=O)N1CCC[C@H]1C(=O)N[C@@H](C)C(=O)N2 | 1.2 | – | – | –
CC[C@H](C)[C@@H]1NC(=O)[C@H](CCC(=O)O)NC(=O)[C@@H]2CCCN2C(=O)[C@H](Cc2cnc[nH]2)NC(=O)[C@H](CC(N)=O)NC(=O)[C@H]([C@@H](C)CC)NC(=O)[C@H](Cc2cnc[nH]2)NC(=O)[C@@H]2CSSC[C@H](NC(=O)CN)C(=O)N[C@@H](CSSC[C@@H](C(N)=O)NC1=O)C(=O)N[C@@H](CO)C(=O)N[C@@H](Cc1cnc[nH]1)C(=O)N1CCC[C@H]1C(=O)N[C@@H](C)C(=O)N2 | 0.28 | – | – | –
CC[C@H](C)[C@@H]1NC(=O)[C@H](Cc2cnc[nH]2)NC(=O)[C@@H]2CSSC[C@H](NC(=O)CN)C(=O)N[C@@H](CSSC[C@@H](C(N)=O)NC(=O)[C@H](CC(C)C)NC(=O)[C@H](CCC(=O)O)NC(=O)[C@@H]3CCCN3C(=O)[C@H](Cc3cnc[nH]3)NC(=O)[C@H](CCCC(=O)O)NC1=O)C(=O)N[C@@H](CO)C(=O)N[C@@H](Cc1cnc[nH]1)C(=O)N1CCC[C@H]1C(=O)N[C@@H](C)C(=O)N2 | 3 | – | – | –
CC[C@H](C)[C@@H]1NC(=O)[C@H](Cc2cnc[nH]2)NC(=O)[C@@H]2CSSC[C@H](NC(=O)CN)C(=O)N[C@@H](CSSC[C@@H](C(N)=O)NC(=O)[C@H](CC(C)C)NC(=O)[C@H](CCC(=O)O)NC(=O)[C@@H]3CCCN3C(=O)[C@H](Cc3cnc[nH]3)NC(=O)[C@H](CCCCCC(=O)O)NC1=O)C(=O)N[C@@H](CO)C(=O)N[C@@H](Cc1cnc[nH]1)C(=O)N1CCC[C@H]1C(=O)N[C@@H](C)C(=O)N2 | 1.3 | – | – | –
CC[C@H](C)[C@@H]1NC(=O)[C@H](CCC(=O)O)NC(=O)[C@@H]2CCCN2C(=O)[C@H](Cc2cnc[nH]2)NC(=O)[C@H](CCCCC(=O)O)NC(=O)[C@H]([C@@H](C)CC)NC(=O)[C@H](Cc2cnc[nH]2)NC(=O)[C@@H]2CSSC[C@H](NC(=O)CN)C(=O)N[C@@H](CSSC[C@@H](C(N)=O)NC1=O)C(=O)N[C@@H](CO)C(=O)N[C@@H](Cc1cnc[nH]1)C(=O)N1CCC[C@H]1C(=O)N[C@@H](C)C(=O)N2 | 0.57 | 341 | 35 | 572
CC[C@H](C)[C@@H]1NC(=O)[C@H](Cc2cnc[nH]2)NC(=O)[C@@H]2CSSC[C@H](NC(=O)CN)C(=O)N[C@@H](CSSC[C@@H](C(N)=O)NC(=O)[C@H](CC(C)C)NC(=O)[C@H](CCC(=O)O)NC(=O)[C@@H]3CCCN3C(=O)[C@H](Cc3cnc[nH]3)NC(=O)[C@H](CC(=O)O)NC1=O)C(=O)N[C@@H](CO)C(=O)N[C@@H](Cc1cnc[nH]1)C(=O)N1CCC[C@H]1C(=O)N[C@@H](C)C(=O)N2 | 1.7 | – | – | –
CC[C@H](C)[C@@H]1NC(=O)[C@H](Cc2cnc[nH]2)NC(=O)[C@@H]2CSSC[C@H](NC(=O)CN)C(=O)N[C@@H](CSSC[C@@H](C(N)=O)NC(=O)[C@H](CC(C)C)NC(=O)[C@H](CCC(=O)O)NC(=O)[C@@H]3CCCN3C(=O)[C@H](Cc3cnc[nH]3)NC(=O)[C@H](CC(N)=O)NC1=O)C(=O)N[C@@H](CO)C(=O)N[C@@H](Cc1cnc[nH]1)C(=O)N1CCC[C@H]1C(=O)N[C@@H](C)C(=O)N2 | 0.29 | – | – | –
CC[C@H](C)[C@@H]1NC(=O)[C@H](Cc2cnc[nH]2)NC(=O)[C@@H]2CSSC[C@H](NC(=O)CN)C(=O)N[C@@H](CSSC[C@@H](C(N)=O)NC(=O)[C@H](CC(C)C)NC(=O)[C@H](CCC(=O)O)NC(=O)[C@@H]3CCCN3C(=O)[C@H](Cc3cnc[nH]3)NC(=O)[C@H](CCCCC(=O)O)NC1=O)C(=O)N[C@@H](CO)C(=O)N[C@@H](Cc1cnc[nH]1)C(=O)N1CCC[C@H]1C(=O)N[C@@H](C)C(=O)N2 | 0.38 | 501 | 32 | 280

From BindingDB's records for 31194549
